The source of these data is paper PMC8206078, “Identification of pyrogallol as a warhead in design of covalent inhibitors for the SARS-CoV-2 3CL protease” (Nature Communications, 2021).

The target in this assay is SARS-CoV-2 3CLpro (Severe acute respiratory syndrome coronavirus 2, UniProt P0DTD1). The experiment in a line: FRET-based protease assay, SARS-CoV-2 3CLpro. The class given is biochemical. The settings on record: 0.048828 µM; individual replicates of independent experiments.

The source holds more than one record for some entries. The other results are left out here. An entry can have further records. The records of an entry differ, and nothing given here explains why; dose, time, organism, isomer or construct need not be as stated for each record.

Take `CC(C)CCOc1cc(O)c2c(=O)c(O)c(-c3cc(O)c(O)c(O)c3)oc2c1`: the “inhibition ratio (%)” value is -9.486% and -2.128%.
